Tests used:
[1] = target: Sumo-Fur (Staphylococcus aureus Newman) (UniProt Q9R303); test: DNase I footprinting; conditions: 100 uM Mn2+; Fur EMSA/footprint: 10 mM Tris-borate pH 8.0, 1 mM MgCl2, 25 mM KCl, 100 uM MnCl2, 50 ug/mL BSA, room temp 20 min; competition EMSA same plus 20 mM citrate, 25 C; recombinant protein; residues 1-149; protein details: N-terminal Sumo (pET28a-sumo), Ni-NTA purified; label: 5'-FAM on forward strand; probe letters rebuilt from the primers and the genome
[2] = target: Fur (Sumo removed) (Staphylococcus aureus Newman) (UniProt Q9R303); test: EMSA competition; conditions: 20 mM citrate, 100 uM Mn2+, competes with prebound CcpE and is competed by CcpE; Fur EMSA/footprint: 10 mM Tris-borate pH 8.0, 1 mM MgCl2, 25 mM KCl, 100 uM MnCl2, 50 ug/mL BSA, room temp 20 min; competition EMSA same plus 20 mM citrate, 25 C; recombinant protein; residues 1-149; probe letters rebuilt from the primers and the genome
[3] = target: Sumo-Fur (Staphylococcus aureus Newman) (UniProt Q9R303); test: EMSA; conditions: Fur EMSA/footprint: 10 mM Tris-borate pH 8.0, 1 mM MgCl2, 25 mM KCl, 100 uM MnCl2, 50 ug/mL BSA, room temp 20 min, competition EMSA same plus 20 mM citrate, 25 C, recombinant protein, residues 1-149, protein details: N-terminal Sumo (pET28a-sumo), Ni-NTA purified, probe letters rebuilt from the primers and the genome

“TAATTCAAAGTACCGCTATCTGCGGCATTTGCAGAATTACTGAATGTCGCGATGATGATAATTAACGCTAAAATCGTTGTATTAAAAACTTTTAAAATATTTTTCAAAACATAATCCTCCTTTTTATGATTGCTTTTAAGTCTTTAGTAAAATCATAAATAATAATGATTATCATTGTCAATATTTATTTTATAATCAATTTATTATTGTTATACGAAAATAGATGTGCTAGTATAATTGATAACCATTATCAATTGCAATGGTTAATCATCTCATATAACAACACATAATTTGTATCCTTAGGAGGAAAACAACATGACAAAACATTATTTAAACAGTAAGTATCAATCAGAACAACG (double strand) [isdC promoter (isdA-isdC intergenic), footprinting]”: binds [1].

“GGCTGGGACATAAATCAATATTCTATGCTCTACGAAGTTATATTGGCAGTAGTTGACTGAACGAAAATGCGCTTGTAACAAGCTTTTTTCAATTCTAGTCAGGGGCCCCAACACAGAGAATTTCGAAAAGAAATTCTACAGGCAATGCGAGTTGGGGTGAGGGCCCCAACACAGAAGCTGACGAAAAGTCAGCTTACAATAATGTGCAAGTTGGGGATGGGCCCCAACAAAGAGAAATTGGATTCCCAATTTCTACAGACAATGCAAGTTGGGGTGGGACGACGAAATAAATTTTGCGAAAATATCATTTCTGTCCCACTCCCATCAAAAGAATGACATTGAAAAAAATATTAAAGTTTGGTGCCATAATTTTCTTTCTGCTCAATGAAATAATACGTTTAAAAATTGAATTGAATCATTCGCGAAATTGATAATTATTCTCAATTAATAAAAAATACTTATTACACCTTACCTGTATGATAAGTTTTGCTTATATACTCTGATTAAAAAGTCAAAACCTAAATTAAGCGTTTTCTAAGCATGATGAGTTGTTTATCAATAAATATAATAATACAATTTAATCAAGGCATATAAATATAAAAATGTATCAAGGGGGATCATTAAATGGCTGCAAATTTTAAAGAGCAATCAAAAAAACATTTTGACTTGAATGGCCAAAGTTATACTTACTATGATTT (double strand) [citB promoter, footprinting]”: binds [1].

“TAATTCAAAGTACCGCTATCTGCGGCATTTGCAGAATTACTGAATGTCGCGATGATGATAATTAACGCTAAAATCGTTGTATTAAAAACTTTTAAAATATTTTTCAAAACATAATCCTCCTTTTTATGATTGCTTTTAAGTCTTTAGTAAAATCATAAATAATAATGATTATCATTGTCAATATTTATTTTATAATCAATTTATTATTGTTATACGAAAATAGATGTGCTAGTATAATTGATAACCATTATCAATTGCAATGGTTAATCATCTCATATAACAACACATAATTTGTATCCTTAGGAGGAAAACAACATGACAAAACATTATTTAAACAGTAAGTATCAATCAGAACAACG (double strand) [isdC promoter (isdA-isdC intergenic), EMSA]”: binds [2]; binds ([3]; 100 uM Mn2+, no citrate); binds ([3]; 20 mM citrate plus increasing Mn2+, dose-dependent restoration).

“GGCTGGGACATAAATCAATATTCTATGCTCTACGAAGTTATATTGGCAGTAGTTGACTGAACGAAAATGCGCTTGTAACAAGCTTTTTTCAATTCTAGTCAGGGGCCCCAACACAGAGAATTTCGAAAAGAAATTCTACAGGCAATGCGAGTTGGGGTGAGGGCCCCAACACAGAAGCTGACGAAAAGTCAGCTTACAATAATGTGCAAGTTGGGGATGGGCCCCAACAAAGAGAAATTGGATTCCCAATTTCTACAGACAATGCAAGTTGGGGTGGGACGACGAAATAAATTTTGCGAAAATATCATTTCTGTCCCACTCCCATCAAAAGAATGACATTGAAAAAAATATTAAAGTTTGGTGCCATAATTTTCTTTCTGCTCAATGAAATAATACGTTTAAAAATTGAATTGAATCATTCGCGAAATTGATAATTATTCTCAATTAATAAAAAATACTTATTACACCTTACCTGTATGATAAGTTTTGCTTATATACTCTGATTAAAAAGTCAAAACCTAAATTAAGCGTTTTCTAAGCATGATGAGTTGTTTATCAATAAATATAATAATACAATTTAATCAAGGCATATAAATATAAAAATGTATCAAGGGGGATCATTAAATGGCTGCAAATTTTAAAGAGCAATCAAAAAAACATTTTGACTTGAATGGCCAAAGTTATACTTACTATGATTT (double strand) [citB promoter (citB-p), EMSA]”: binds ([3]; 100 uM Mn2+, concentration dependent).

Reference: article PMC11315280
